Measured values from several laboratories, pooled; numbers as filed in NIAID ChemDB.

A number after MIC or MFC names an inhibition level or a share of isolates. Inhibition is in % at the dose shown (toxicity tests: loss of growth or viability). ICn: concentration for n% inhibition. MIC bound: limit read from a one-dose screen. An empty or dashed field is not shown. Lines come from different laboratories, so protocols vary.

smiles	test	agent	strain or isolate	cell line	target	method	endpoint	tested at	value
Clc1c2c(c(Cl)c3c1=Nc1ncccc1O3)=Nc1ncccc1O2	culture	Mycobacterium tuberculosis	H37Rv			BACTEC	inhibition	12.5 µg/mL	-1%
CC(=O)/C=C/c1ccc(O)cc1	culture	Mycobacterium tuberculosis	H37Rv				MIC		50 µg/mL
O=C1NC(=O)c2nccnc21	culture	Mycobacterium tuberculosis	H37Rv			BACTEC	MIC bound		>12.5 µg/mL
c1ccc(C2CCN(c3cncc(-c4csc5ccccc45)n3)CC2)cc1	target	Cytomegalovirus			UL97 kinase		inhibition	10 µM	>15%
O=C(/C=C/C(=O)Nc1ccc(O)cc1)Nc1ccc(O)cc1	culture	Mycobacterium tuberculosis	H37Rv			resazurin	inhibition	6.25 µg/mL	5%
Cc1csc(N)n1.Cl	culture	Mycobacterium tuberculosis	H37Rv				MIC		>100 µg/mL
Fc1ccc(N2CCCCC2)c(NC(=S)c2ccncc2)c1	host protein				EphB2	kinase activity	inhibition	10 µM	14%
CC(=O)Nc1ccc(N=Nc2ccc(O)c3ncccc23)cc1.Cl	culture	Mycobacterium tuberculosis	H37Rv				MIC		>100 µg/mL
CCN(C1=c2ccccc2=NC1)c1cncc(-c2ccc(C(N)=O)cc2)n1	target	Cytomegalovirus			UL97 kinase		IC50		<1 µM
O=[N+]([O-])c1ccc(C2Nc3cc(Cl)c(Cl)cc3S(=O)(=O)N2O)cc1	culture	Mycobacterium tuberculosis	H37Rv			BACTEC	inhibition	6.25 µg/mL	1%
c1ccc2c(-c3cncc(N4CCN(c5ccncc5)CC4)n3)cccc2c1	target	Cytomegalovirus			UL97 kinase		inhibition	1 µM	<50%
O=[N+]([O-])c1ccccc1S(=O)(=O)c1cc(Cl)cc2c1NCCC2	culture	Mycobacterium tuberculosis	H37Rv			BACTEC	MIC bound		>12.5 µg/mL
CCOC(=O)N(C)N=O	culture	Mycobacterium tuberculosis	H37Rv				MIC		>100 µg/mL
CC1OC(n2ccc(NC(=O)c3ccc(NC(=O)C(C)(N)CO)cc3)nc2=O)CCC1OC1OC(C)C(N(C)C)C(O)C1O	culture	Mycobacterium tuberculosis	H37Rv	VERO			MIC		1.6 µg/mL
COc1ccc2ccccc2c1/C=C(\C)C(=O)O	culture	Mycobacterium tuberculosis	H37Rv				MIC		>100 µg/mL
O=C(CN1C(=O)CC(NC(=O)OCc2ccccc2)C1=O)NCC(=O)Oc1ccc([N+](=O)[O-])cc1	culture	Mycobacterium tuberculosis	H37Rv			BACTEC	inhibition	12.8 µg/mL	29%
Cc1nc(C)c(C)nc1C.O	culture	Mycobacterium tuberculosis	H37Rv				MIC		>100 µg/mL
CCOC(=O)n1[nH][nH]c2c(c(=O)n(C)c(=O)n2C)n1C(=O)OCC	culture	Mycobacterium tuberculosis	H37Rv			BACTEC	MIC		128 µg/mL
O=C(Nc1nc2ccccc2[nH]1)c1ccc2ccccc2c1O	culture	Mycobacterium tuberculosis	H37Rv				MIC		50 µg/mL
COc1ccc(Cc2ccc3[nH]c(=O)cc(C)c3c2)cc1S(=O)(=O)O	culture	Mycobacterium tuberculosis	H37Rv			BACTEC	MIC bound		>6.25 µg/mL
Cc1ccc(N2CCN(c3cncc(-c4csc5ccccc45)n3)CC2)cc1C	target	Cytomegalovirus			UL97 kinase		inhibition	10 µM	>15%
O=S(=O)(CCO)CCO	culture	Mycobacterium tuberculosis	H37Rv				MIC		>100 µg/mL
NC(=O)c1ccc(-c2cncc(N3CCN(c4ccncc4)CC3)n2)cc1	target	Cytomegalovirus			UL97 kinase		IC50		<1 µM
O=[N+]([O-])c1ccc2c(c1)S(=O)(=O)c1ccccc1-2	culture	Mycobacterium tuberculosis	H37Rv				MIC		>100 µg/mL
C[C@H](N)C(=O)N[C@@H]1[C@H]2C(=C(O)C[C@@H](O)[C@@H]2O)C(=O)O[C@]1(C)C(Cl)Cl	culture	Mycobacterium tuberculosis	PZA-R				MIC		1.6 µg/mL
CCOc1ccc(-c2cncc(N3CCN(c4ccccc4F)CC3)n2)cc1	target	Cytomegalovirus			UL97 kinase		inhibition	10 µM	>15%
CC(=O)Nc1ccc(S(=O)[O-])cc1.[Na+]	culture	Mycobacterium tuberculosis	H37Rv				MIC		100 µg/mL
Cc1ccc(-c2cncc(N3CCN(c4ccccc4F)CC3)n2)cc1	target	Cytomegalovirus			UL97 kinase		IC50		<100 µM
NC(=N\N=C\c1ccc(Cl)c(Cl)c1)/C(N)=N/N=C/c1ccc(Cl)c(Cl)c1	culture	Mycobacterium tuberculosis	H37Rv			BACTEC	inhibition	12.5 µg/mL	9%
c1coc(CNc2nccnc2-c2cc3ccccc3o2)c1	target	Cytomegalovirus			UL97 kinase		inhibition	10 µM	>15%
C=CCc1ccc(OC)c(OC)c1	culture	Candida albicans	2889			turbidity	MIC90		350 µg/mL
COc1ccccc1N1CCN(c2cncc(-c3ccc4ccccc4c3)n2)CC1	target	Cytomegalovirus			UL97 kinase		IC50		<10 µM
CN(C)CC1(C)CCc2c(ccc3ccccc23)C1=O.Cl	culture	Mycobacterium tuberculosis	H37Rv				MIC		>100 µg/mL

A second listing of 4 rows from above:

smiles,test,agent,strain or isolate,cell line,target,method,endpoint,tested at,value
O=[N+]([O-])c1ccc2c(c1)S(=O)(=O)c1ccccc1-2,culture,Mycobacterium tuberculosis,H37Rv,,,,MIC,,>100 µg/mL
Cc1ccc(N2CCN(c3cncc(-c4csc5ccccc45)n3)CC2)cc1C,target,Cytomegalovirus,,,UL97 kinase,,inhibition,10 µM,>15%
c1coc(CNc2nccnc2-c2cc3ccccc3o2)c1,target,Cytomegalovirus,,,UL97 kinase,,inhibition,10 µM,>15%
O=C(/C=C/C(=O)Nc1ccc(O)cc1)Nc1ccc(O)cc1,culture,Mycobacterium tuberculosis,H37Rv,,,resazurin,inhibition,6.25 µg/mL,5%